Pooled drug test results. Numbers come from NIAID ChemDB, via PubChem.

Common to all: tests in culture; agent: Mycobacterium tuberculosis

MIC bound comes from a single tested concentration. Neighbouring rows are from separate reports. Percent inhibition refers to the dose given; in toxicity tests it is the harm to the cells. a–b is a range or a potency band. An empty or dashed field is not shown. ECn: concentration that inhibits the pathogen or its effect by n%. MIC50, MIC90 and the like: level of inhibition, or share of isolates inhibited.

compound	strain	mutations	method	setting	measure	tested at	value
CCCOC(=O)C1=C(C)OC23OC(N)=C(C#N)C12C(=O)c1ccccc13	18b		resazurin		MIC		8 µg/mL
CCCC(=O)C(CC)/C(CCC(=O)N(Cc1ccccc1)Cc1ccccc1)=N\NC(=O)C[N+](C)(C)C.[Cl-]	H37Rv		BACTEC		MIC bound		>12.5 µg/mL
Cc1ccc(S(=O)(=O)[C@H]2CS(=O)(=O)C[C@@H]2NCCc2ccccc2)cc1	18b		resazurin		MIC		16 µg/mL
Cc1nn(C(=O)Cc2ccccc2)c2c1C(c1ccc(Cl)cc1)SC(N)=N2	H37Rv		BACTEC		inhibition	12.5 µg/mL	21%
COc1cc(C2=NN(C(=O)COc3ccc4ccccc4c3)[C@H](Cc3ccccc3)C2)c(C)cc1OCC(=O)O	H37Rv				MIC		>6.25 µg/mL
COc1ccc(-c2nnc(CCON=C(c3ccccc3)c3ccccc3)o2)cc1					inhibition	12.5 µg/mL	7–56%
CCN(CC)CCN(C)c1ccc(CO)c2sc3cc(Cl)ccc3c(=O)c12	H37Rv		BACTEC		inhibition	12.5 µg/mL	97%
CCN(CC)CCOC(=O)c1ccc2cccnc2c1O	H37Rv				MIC50		>10 µg/mL
Cc1c(N(C)C)c(=O)n(-c2ccccc2)n1C	H37Rv		BACTEC		MIC bound		>12.8 µg/mL
CCOc1cccc(C(=O)N(Cc2ccccc2)C2CCS(=O)(=O)C2)c1	18b		resazurin		MIC		4 µg/mL
C/C(=N\OCCc1nnc(Nc2ccc(Br)cc2)o1)c1ccccc1					inhibition	12.5 µg/mL	7–56%
CN[C@@H]1[C@H](O[C@H]2[C@H](O[C@H]3[C@H](O)[C@@H](O)[C@H](N=C(N)N)[C@@H](O)[C@@H]3N=C(N)N)O[C@@H](C)[C@]2(O)C=O)O[C@@H](CO)[C@H](O)[C@H]1O	Isolate 1				MIC		8 µg/mL
CC1CCN(c2ccc([N+](=O)[O-])s2)CC1	ss18b		resazurin		MIC		12.5 µg/mL
CCOC(=O)c1cc(-c2ccccc2)sc1N	H37Rv		resazurin		MIC		>100 µg/mL
C[C@@H]1CN(c2c(F)c(N)c3c(=O)c(C(=O)O)cn(C4CC4)c3c2F)C[C@H](C)N1	900240				MIC		0.1 µg/mL
CC(=O)c1cc([N+](=O)[O-])c(N2CC(C)CC(C)C2)s1	ss18b		resazurin		MIC		>100 µg/mL
CCc1ccc(O)c2ncccc12	H37Rv				MIC50		0.5 µg/mL
CC(=O)NC[C@H]1CN(c2ccc(N3CCOCC3)c(F)c2)C(=O)O1	Strain 328				MIC		0.25 µg/mL
CO[C@H]1/C=C/O[C@@]2(C)Oc3c(C)c(O)c4c(O)c(c(/C=N/N5CCN(C)CC5)c(O)c4c3C2=O)NC(=O)/C(C)=C\C=C\[C@H](C)[C@H](O)[C@@H](C)[C@@H](O)[C@@H](C)[C@H](OC(C)=O)[C@@H]1C	ss18b		resazurin		MIC		0.625 µg/mL
COCc1cc(C)nc(N/N=C/c2cc(OC)ccc2OC)c1C#N	Clinical isolate		resazurin		MIC		16 µg/mL
C/C(=N\OCCc1nnc(Nc2ccccc2)o1)c1ccccc1					inhibition	12.5 µg/mL	7–56%
NC(Cc1ccc(O)cc1)C(=O)N/N=C/c1cccc2ccccc12	H37Rv		BACTEC		MIC bound		>12.5 µg/mL
Cc1ccc(-c2nnc(CCON=C(c3ccccc3)c3ccccc3)o2)cc1					inhibition	12.5 µg/mL	7–56%
O=C(Nn1cnn2c(=O)c3ccccc3nc2c1=O)c1ccccc1	H37Rv		resazurin		inhibition	6.25 µg/mL	1%
COc1nc2ccc(Br)cc2cc1C(c1ccccc1)C(O)(CCN1CCCCC1)c1ccccc1	H37Rv				MIC90		8.65 µg/mL
c1ccc(CNc2nnc(CCON=C(c3ccccc3)c3ccccc3)o2)cc1					inhibition	12.5 µg/mL	7–56%
CCOc1ccc(NC(=S)Nc2ccc(OCC(C)C)cc2)cc1	Ravenel #226				MIC		3.9 µg/mL
COc1nc2ccc(Br)cc2cc1C(c1ccccc1)C(O)(CCn1cncn1)c1ccccc1	H37Rv				MIC90		52.94 µg/mL
C/C(=N\OCCc1nnc(N2CCCCC2)o1)c1ccccc1					inhibition	12.5 µg/mL	7–56%
COc1nc2ccc(Br)cc2cc1C(c1ccccc1)C(O)(CCN(C)C)c1ccc(N2CCOCC2)cc1	H37Rv				MIC90		59.06 µg/mL
CCNC(=O)c1c(NC(=O)c2c(F)c(F)c(F)c(F)c2F)sc2c1CCN(CC)C2	H37Rv	rpoB S522L mutant	turbidity		MIC		8.5 µM
Cc1cc([N+](=O)[O-])c2ncccc2c1	H37Rv				MIC50		>10 µg/mL
Cc1occc1-c1nnc(SCC(=O)N(C)c2ccc(F)cc2)o1	Clinical isolate		resazurin		MIC		16 µg/mL
O=[N+]([O-])[O][Ga]([O][N+](=O)[O-])[O][N+](=O)[O-]	H37Ra				inhibition	500 µM	95%
COc1nc2ccc(Br)cc2cc1C(c1ccccc1)C(O)(CCN1CCCCC1)c1ccc2cc(Br)ccc2c1	H37Rv				MIC90		67.45 µg/mL
COc1c2occc2c(Br)c2ccc(=S)oc12	H37Rv		BACTEC		MIC bound		>12.5 µg/mL
O=C(O)c1cnc(C2CCCC2)[nH]1	H37Rv				MIC		>6.25 µg/mL
COc1cc2c(c3c1c(=O)c1cc(F)ccc1n3C)C=CC(C)(C)O2	H37Rv		BACTEC		inhibition	12.5 µg/mL	-23%
CCN1CCc2c(sc(NC(=O)c3c(F)c(F)c(F)c(F)c3F)c2C(N)=O)C1			low oxygen		EC50		5 µM
CCCCOc1ccc(NC(=S)Nc2ccc(OCCN(CC)CC)cc2)cc1	H37RV #80				MIC		16.6 µg/mL
CCN(CC)CCCN=c1cc2n(-c3ccc(Cl)c(Cl)c3)c3ccccc3nc-2cc1Nc1ccc(Cl)c(Cl)c1	2225			multidrug-resistant	MIC		0.12 µg/mL
COc1ccc(N2CCN(c3c4c(nc5ccccc35)CCCCC4)CC2)cc1	H37Rv		resazurin		inhibition	6.25 µg/mL	52%
C/C(=N\OCCc1nnc(-c2ccc(C)cc2)o1)c1ccccc1					inhibition	12.5 µg/mL	7–56%
CCn1c(C)c(C(=O)NCCOC)sc1=S	Clinical isolate		resazurin		MIC		16 µg/mL
CC1(C)OC2COC(c3[nH]nc(C(N)=O)c3C(=O)N=[N+]=[N-])C2O1	H37Rv		BACTEC		inhibition	12.5 µg/mL	16%
CCOC(=O)c1cn(C)c2c(cc([N+](=O)[O-])c3cccnc32)c1=O	BCG				MIC90		2.35 µM
CC(C)c1ncc(C(=O)NN)[nH]1	H37Rv				inhibition	6.25 µg/mL	0%
C=C(C)CC[C@H]1CN(c2ccn(N3CCOCC3)c2)C(=O)O1	ATCC 27294				MIC90		>100 µM
CCOC(=O)c1c(NC(=O)c2c(F)c(F)c(F)c(F)c2F)sc2c1CCNC2=O			low oxygen		EC90		3.8 µM
CN[C@@H]1[C@H](O[C@H]2[C@H](O[C@H]3[C@H](O)[C@@H](O)[C@H](N=C(N)N)[C@@H](O)[C@@H]3N=C(N)N)O[C@@H](C)[C@]2(O)C=O)O[C@@H](CO)[C@H](O)[C@H]1O	76				MIC		4 µg/mL
O=C(O)c1nc(C2C3CC4CC(C3)CC2C4)[nH]c1C1C2CC3CC(C2)CC1C3	H37Rv				MIC		>6.25 µg/mL
N#Cc1c(NC(=O)c2c(F)c(F)c(F)c(F)c2F)sc2c1CCOC2	H37Rv	katG Y155 truncation mutant	turbidity		EC90		18 µM
CCCC(C)C(=O)Nc1nc2c(s1)C(=O)CC(C)(C)C2	Clinical isolate		resazurin		MIC		2 µg/mL
CCCCC1CCCCCCc2[nH]c(/C=C3\N=C(c4ccc[nH]4)C=C3OC)cc21.Cl	CS-R				MIC		3.1 µg/mL
CC(C)(C)c1nc(C(=O)NN)c(C(C)(C)C)[nH]1	H37Rv				inhibition	6.25 µg/mL	20%
COc1nc2ccc(Br)cc2cc1C(c1ccccc1)C(O)(CCN(C)C)c1c(F)cccc1F	H37Rv				MIC90		43.01 µg/mL
COC(=O)Cn1ccc2ccc(S(=O)(=O)N3CCCCC3)cc21	18b		resazurin		MIC		1 µg/mL
Cn1c(=O)nc2n(-c3cccc(Br)c3)c3ccccc3nc-2c1=O	H37Rv		BACTEC		MIC bound		>12.5 µg/mL
C[C@H]1COc2c(N3CCN(C)CC3)c(F)cc3c(=O)c(C(=O)O)cn1c23	Strain 5				MIC		0.25 µg/mL
NCCCN1c2ccccc2Sc2ccccc21	MDR-843		resazurin		MIC		2 µg/mL
NS(=O)(=O)c1cc(C(=O)O)c(NCc2ccco2)c([N+](=O)[O-])c1NCc1ccco1	H37Rv		BACTEC		inhibition	12.5 µg/mL	9%
CC1CC(C)CN(c2ccc([N+](=O)[O-])s2)C1	ss18b		resazurin		MIC		12.5 µg/mL
NC[C@H]1O[C@H](O[C@H]2[C@H](O)[C@@H](O[C@H]3O[C@H](CO)[C@@H](O)[C@H](N)[C@H]3O)[C@H](N)C[C@@H]2N)[C@H](O)[C@@H](O)[C@@H]1O	Isolate 5				MIC		2 µg/mL
COc1ccc([C@@H]2CC(=O)c3c(O)cc(O[C@@H]4O[C@H](CO[C@@H]5O[C@@H](C)[C@H](O)[C@@H](O)[C@H]5O)[C@@H](O)[C@H](O)[C@H]4O)cc3O2)cc1O	H37Rv		BACTEC		MIC		≥12.8 µg/mL
O=C(O)c1ccc(O)c2ncccc12	H37Rv				MIC50		5–10 µg/mL
O=NNc1ccc(C(=O)O)cn1	H37Rv		BACTEC		inhibition	12.5 µg/mL	11%
N[C@@H]1CN(c2c(F)cc3c(=O)c(C(=O)O)cn([C@@H]4C[C@@H]4F)c3c2Cl)CC12CC2	Clinical strain	Gyrase Asp94Asn	resazurin		MIC		0.25–0.5 µg/mL
CCN1CCc2c(sc(NC(=O)c3c(F)c(F)c(F)c(F)c3F)c2C#N)C1	H37Rv	rpoB S522L mutant	turbidity		MIC		18 µM
C[C@@H]1CN(c2c(F)c(N)c3c(=O)c(C(=O)O)cn(C4CC4)c3c2F)C[C@H](C)N1	Isolate 15				MIC		0.13 µg/mL
CCN1CCc2c(sc(NC(=O)c3c(F)c(F)c(F)c(F)c3F)c2C(=O)NC)C1	H37Rv		resazurin		MIC		1.6 µM
C=CCSS/C=C/CS(=O)CC=C	PZA-R				MIC		12.5 µg/mL
C/C(=N\OCc1nnc(NCc2ccccc2)o1)c1ccccc1					inhibition	12.5 µg/mL	7–56%
Cc1cc(N)c2ncccc2c1	H37Rv				MIC50		>10 µg/mL
O=C(O)c1nc(C2CCCC2)[nH]c1C1CCCC1	H37Rv				MIC		>6.25 µg/mL
CCOC(=O)c1c(NC(=O)c2c(F)c(F)c(F)c(F)c2F)sc2c1CCOC2	ATCC35838		turbidity		EC90		0.24 µM
CC(C)(C)OC(=O)NC(Cc1c[nH]c2ccccc12)C(=O)NC(CS)C(=O)NN	H37Rv		BACTEC		inhibition	12.5 µg/mL	0%
CC(C)(C)OC(=O)N1CCc2c(sc(N)c2C(=O)O)C1	H37Rv		resazurin		MIC		>100 µg/mL
CSC(=S)Nc1cccc(C)n1	H37Rv		resazurin		MIC bound		>6.25 µg/mL
Cn1cc(C(=O)O)c(=O)c2cc([N+](=O)[O-])c3cccnc3c21	BCG	gyrA mutation A90V			MIC90		1.4 µM
COC(=O)C1C2CC3c4c(c5ccc(OC)cc5n4[N+](=O)[O-])CCN3CC2CC(OC(=O)c2cc(OC)c(OC)c(OC)c2)C1OC	H37Rv		BACTEC		inhibition	12.5 µg/mL	42%
O=C(O)C(=O)O.OC(CNCCc1ccccc1)CN1c2ccccc2Sc2ccccc21	MDR-699		resazurin		MIC		8 µg/mL
O=C1NC2(CCCCC2)N=C2C(Cl)CCCC12Cl	H37Rv		BACTEC		MIC bound		>12.5 µg/mL
CC1(C)CC[C@]2(C(=O)O)CC[C@]3(C)C(=CCC4[C@@]5(C)CC[C@H](O)C(C)(C)C5CC[C@]43C)C2C1	H37Rv (isoniazid-resistant)				MIC		50 µg/mL

Repeating the final 8 entries:

{"compound": "CC(C)(C)OC(=O)NC(Cc1c[nH]c2ccccc12)C(=O)NC(CS)C(=O)NN", "strain": "H37Rv", "method": "BACTEC", "measure": "inhibition", "tested at": "12.5 µg/mL", "value": "0%"}
{"compound": "CC(C)(C)OC(=O)N1CCc2c(sc(N)c2C(=O)O)C1", "strain": "H37Rv", "method": "resazurin", "measure": "MIC", "value": ">100 µg/mL"}
{"compound": "CSC(=S)Nc1cccc(C)n1", "strain": "H37Rv", "method": "resazurin", "measure": "MIC bound", "value": ">6.25 µg/mL"}
{"compound": "Cn1cc(C(=O)O)c(=O)c2cc([N+](=O)[O-])c3cccnc3c21", "strain": "BCG", "mutations": "gyrA mutation A90V", "measure": "MIC90", "value": "1.4 µM"}
{"compound": "COC(=O)C1C2CC3c4c(c5ccc(OC)cc5n4[N+](=O)[O-])CCN3CC2CC(OC(=O)c2cc(OC)c(OC)c(OC)c2)C1OC", "strain": "H37Rv", "method": "BACTEC", "measure": "inhibition", "tested at": "12.5 µg/mL", "value": "42%"}
{"compound": "O=C(O)C(=O)O.OC(CNCCc1ccccc1)CN1c2ccccc2Sc2ccccc21", "strain": "MDR-699", "method": "resazurin", "measure": "MIC", "value": "8 µg/mL"}
{"compound": "O=C1NC2(CCCCC2)N=C2C(Cl)CCCC12Cl", "strain": "H37Rv", "method": "BACTEC", "measure": "MIC bound", "value": ">12.5 µg/mL"}
{"compound": "CC1(C)CC[C@]2(C(=O)O)CC[C@]3(C)C(=CCC4[C@@]5(C)CC[C@H](O)C(C)(C)C5CC[C@]43C)C2C1", "strain": "H37Rv (isoniazid-resistant)", "measure": "MIC", "value": "50 µg/mL"}